Here are results for one molecule from patent US6071902A, “Method for treating excessive aggression” (Eli Lilly and Company, priority 1997, dated 2000).

SMILES strings stand for the structures.

In the assay the test system is 5-HT-2 receptor. The assay is described as follows: pharmacological studies, 5-HT-2 receptor activity.

Turning to `Cc1cc2c(s1)Nc1ccccc1N=C2N1CCN(C)CC1` [olanzapine, 2-methyl-4-(4-methyl-1-piperazinyl)-10H-thieno[2,3-b][1,5]benzodiazepine], the “activity at the 5-HT-2 receptor” value is listed as “active”.
